# Sequence variants of PSTVd loop 15 after infection

The pool varies loop 15 of the PSTVd intermediate strain in the pattern GGAAACCGNNNNNNC; wild type is GGAAACCGCUACUAC (upper and lower strand joined, each 5' to 3', the first 7 letters being the upper strand, closing pairs included).

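A pool of all variants was put on leaves of three Nicotiana benthamiana plants. Samples came from the inoculated region at 5 days, the leaf margin at 10 and upper systemic leaves at 12.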

Numbers give reads per thousand; 0 = not seen among the reads, higher = more abundant.
Each site shows the three plants.
"Pool" is the share in the plasmid pool used as inoculum, on the same scale.
The inoculated region was read from the minus strand, the other sites from the plus strand.
Sequences that differ at fixed positions probably stem from PCR or sequencing errors, and defective variants can be carried along by functional ones.
Wild type was 33.9 per thousand in the pool and the most common sequence in every sample (inoculated region 202, 200, 159; leaf margin 724, 746, 710; systemic leaves 856, 883, 880).
With 43,870-66,106 reads a sample, very low values are single reads.

| sequence | pool | inoculated region | leaf margin | systemic leaves |
|---|---|---|---|---|
| GGAAACCGCCGCGGC | 0.224 | 0.164 0.193 0.0762 | 0 0 0 | 0.0161 0 0 |
| GGAAACCGCCGCGUC | 0.256 | 0.115 0.177 0.0571 | 0.0162 0 0 | 0 0 0 |
| GGAAACCGCCGCUAC | 0.192 | 0.360 0.257 0.324 | 0.146 0.0891 0.180 | 0.0483 0.0605 0.0684 |
| GGAAACCGCCGCUCC | 0.208 | 0.0328 0.0964 0.114 | 0 0 0 | 0 0 0 |
| GGAAACCGCCGCUGC | 0.192 | 0.0983 0.112 0.133 | 0 0 0.0200 | 0 0 0 |
| GGAAACCGCCGCUUC | 0.208 | 0.426 0.305 0.381 | 0.113 0.134 0.120 | 0.0483 0 0 |
| GGAAACCGCCGGAAC | 0.256 | 0.295 0.257 0.381 | 0.162 0.0891 0.160 | 0.0644 0.121 0.0228 |
| GGAAACCGCCGGACC | 0.208 | 0.0983 0.0643 0.0762 | 0 0 0 | 0 0 0 |
| GGAAACCGCCGGAGC | 0.320 | 0.0983 0.0643 0.114 | 0 0 0 | 0 0 0 |
| GGAAACCGCCGGAUC | 0.240 | 0.0819 0.129 0.0762 | 0.0323 0.0223 0.0200 | 0 0 0 |
| GGAAACCGCCGGCAC | 0.224 | 0.0983 0.129 0.114 | 0 0 0.0200 | 0 0 0 |
| GGAAACCGCCGGCCC | 0.208 | 0.311 0.241 0.228 | 0 0.0223 0 | 0 0 0 |
| GGAAACCGCCGGCGC | 0.272 | 0.180 0.0161 0.228 | 0 0.0223 0 | 0 0.0151 0 |
| GGAAACCGCCGGCUC | 0.208 | 0.0819 0.0964 0.0762 | 0 0.0223 0 | 0.0161 0 0 |
| GGAAACCGCCGGGAC | 0.112 | 0.508 0.643 0.571 | 0.113 0.156 0.120 | 0.0161 0 0 |
| GGAAACCGCCGGGCC | 0.256 | 0.328 0.0964 0.248 | 0 0 0.0200 | 0 0 0 |
| GGAAACCGCCGGGGC | 0.240 | 0.213 0.0964 0.0571 | 0 0 0 | 0 0 0 |
| GGAAACCGCCGGGUC | 0.192 | 0.0983 0.386 0.381 | 0.146 0.0445 0.140 | 0.0966 0 0 |
| GGAAACCGCCGGUAC | 0.208 | 0.295 0.273 0.438 | 0.129 0.0668 0.200 | 0 0.106 0.0456 |
| GGAAACCGCCGGUCC | 0.208 | 0.328 0.225 0.248 | 0.0970 0.134 0.140 | 0.0644 0.0908 0.0684 |
| GGAAACCGCCGGUGC | 0.240 | 0.311 0.305 0.305 | 0.146 0.0445 0.140 | 0.0483 0.0605 0.114 |
| GGAAACCGCCGGUUC | 0.240 | 0.213 0.386 0.267 | 0.0485 0.0445 0.140 | 0.0322 0.121 0.0912 |
| GGAAACCGCCGUAAC | 0.208 | 0.0328 0.161 0.228 | 0 0 0 | 0.0161 0 0 |
| GGAAACCGCCGUACC | 0.160 | 0.0983 0.0803 0.114 | 0 0 0.0200 | 0 0 0 |
| GGAAACCGCCGUAGC | 0.160 | 0.115 0.129 0.0571 | 0 0.0223 0.0200 | 0 0 0 |
| GGAAACCGCCGUAUC | 0.208 | 0.409 0.610 0.514 | 0.0162 0.0223 0.0200 | 0.0161 0 0 |
| GGAAACCGCCGUCAC | 0.176 | 0.295 0.177 0.190 | 0 0 0 | 0.0161 0 0.0228 |
| GGAAACCGCCGUCCC | 0.352 | 0.0655 0.0964 0.0762 | 0 0.0223 0 | 0.0161 0 0 |
| GGAAACCGCCGUCGC | 0.224 | 0.0655 0.0803 0.0381 | 0 0 0.0200 | 0 0 0 |
| GGAAACCGCCGUCUC | 0.224 | 1.05 0.739 0.800 | 0 0 0.0200 | 0.0161 0 0 |
| GGAAACCGCCGUGAC | 0.352 | 0.131 0.112 0.190 | 0 0 0.0200 | 0.0161 0 0 |
| GGAAACCGCCGUGCC | 0.192 | 0.115 0.129 0.0952 | 0.0162 0 0.0401 | 0 0 0 |
| GGAAACCGCCGUGGC | 0.176 | 0.0983 0.0964 0.0952 | 0.0162 0 0.0401 | 0 0 0 |
| GGAAACCGCCGUGUC | 0.304 | 0.328 0.289 0.209 | 0.0162 0 0 | 0 0.0151 0 |
| GGAAACCGCCGUUAC | 0.272 | 0.278 0.321 0.476 | 0.113 0.0668 0.0401 | 0.113 0.0756 0.137 |
| GGAAACCGCCGUUCC | 0.128 | 0.0819 0.0964 0.152 | 0 0 0.0200 | 0 0 0 |
| GGAAACCGCCGUUGC | 0.144 | 0.0819 0.0161 0.114 | 0.0162 0 0 | 0 0 0 |
| GGAAACCGCCGUUUC | 0.272 | 0.229 0.353 0.438 | 0.146 0.0891 0.180 | 0.0483 0 0 |
| GGAAACCGCCUAAAC | 0.304 | 0.164 0.0803 0.133 | 0.0162 0 0 | 0 0 0 |
| GGAAACCGCCUAACC | 0.272 | 0.0491 0.0482 0.114 | 0.0162 0 0 | 0.0161 0 0 |
| GGAAACCGCCUAAGC | 0.240 | 0.180 0.0803 0.0952 | 0.0162 0 0.0200 | 0 0 0 |
| GGAAACCGCCUAAUC | 0.240 | 0.0655 0.0643 0.114 | 0 0 0.0200 | 0 0 0 |
| GGAAACCGCCUACAC | 0.112 | 0.0819 0.177 0.114 | 0 0 0 | 0 0 0 |
| GGAAACCGCCUACCC | 0.240 | 0.0655 0.0964 0.133 | 0.0162 0 0 | 0.0161 0 0 |
| GGAAACCGCCUACGC | 0.288 | 0.115 0.0321 0.0952 | 0 0 0 | 0 0 0.0228 |
| GGAAACCGCCUACUC | 0.176 | 0.115 0.0321 0.0762 | 0.0162 0 0.0401 | 0.0161 0 0 |
| GGAAACCGCCUAGAC | 0.160 | 0.131 0.112 0.0762 | 0 0 0 | 0 0 0 |
| GGAAACCGCCUAGCC | 0.224 | 0.0491 0.0482 0.171 | 0 0.0223 0 | 0.0161 0 0 |
| GGAAACCGCCUAGGC | 0.256 | 0.0819 0.0803 0.133 | 0.0162 0 0 | 0 0 0 |
| GGAAACCGCCUAGUC | 0.176 | 0.0655 0.0964 0.0952 | 0.0162 0.0223 0 | 0 0 0 |
| GGAAACCGCCUAUAC | 0.192 | 0.311 0.289 0.305 | 0.113 0.0891 0.140 | 0.0161 0.182 0.0912 |
| GGAAACCGCCUAUCC | 0.128 | 0.0491 0.209 0.0571 | 0 0 0.0200 | 0.0161 0 0 |
| GGAAACCGCCUAUGC | 0.224 | 0.0491 0.0803 0.133 | 0 0.0445 0.0200 | 0.0161 0 0 |
| GGAAACCGCCUAUUC | 0.272 | 0.328 0.257 0.343 | 0.0970 0.111 0.0601 | 0.0805 0 0 |
| GGAAACCGCCUCAAC | 0.288 | 0.246 0.241 0.267 | 0.0323 0.0445 0 | 0.0161 0 0 |
| GGAAACCGCCUCACC | 0.256 | 0.197 0.112 0.209 | 0 0 0.0601 | 0 0 0 |
| GGAAACCGCCUCAGC | 0.288 | 0.131 0.161 0.133 | 0.0162 0 0.0200 | 0.0322 0.0151 0 |
| GGAAACCGCCUCAUC | 0.256 | 0.229 0.289 0.152 | 0 0 0.0401 | 0 0 0 |
| GGAAACCGCCUCCAC | 0.288 | 0.147 0.0643 0.0571 | 0.0162 0.0223 0.0200 | 0 0 0 |
| GGAAACCGCCUCCCC | 0.128 | 0.0819 0.0803 0.133 | 0.0162 0 0 | 0 0 0 |
| GGAAACCGCCUCCGC | 0.208 | 0.0819 0.225 0.114 | 0 0 0.0200 | 0 0 0 |
| GGAAACCGCCUCCUC | 0.240 | 0.0983 0.0482 0.0762 | 0 0 0 | 0 0 0 |
| GGAAACCGCCUCGAC | 0.192 | 0.0819 0.145 0.152 | 0 0.0223 0 | 0.0161 0 0 |
| GGAAACCGCCUCGCC | 0.144 | 0.0819 0.0803 0.171 | 0 0.0223 0.0401 | 0 0 0 |
| GGAAACCGCCUCGGC | 0.128 | 0.213 0.0964 0.114 | 0.0162 0 0 | 0 0 0 |
| GGAAACCGCCUCGUC | 0.240 | 0.164 0.209 0.228 | 0.0162 0 0.0200 | 0 0 0 |
| GGAAACCGCCUCUAC | 0.288 | 0.377 0.241 0.343 | 0.0970 0.0445 0.120 | 0.0644 0 0 |

A selection of 5 entries from above:

sequence,pool,inoculated region,leaf margin,systemic leaves
GGAAACCGCCUCGGC,0.128,0.213 0.0964 0.114,0.0162 0 0,0 0 0
GGAAACCGCCUACAC,0.112,0.0819 0.177 0.114,0 0 0,0 0 0
GGAAACCGCCGUCGC,0.224,0.0655 0.0803 0.0381,0 0 0.0200,0 0 0
GGAAACCGCCUCUAC,0.288,0.377 0.241 0.343,0.0970 0.0445 0.120,0.0644 0 0
GGAAACCGCCUCCGC,0.208,0.0819 0.225 0.114,0 0 0.0200,0 0 0

Source: Wu et al. 2024 (doi:10.1371/journal.ppat.1012142), supplementary data.